According to PMC10233829 (ACS Omega, 2023):

Tested on: PC3 cells
Assay: MTT assay, cytotoxic activity
Type: cell-based, human
Settings: HaCaT vs PC3
Protocol: Metastatic prostate cancer (PC3) and human immortal keratinocyte (HaCaT) cell lines were purchased from the American Type Culture Collection (ATCC, Rockville, MD, USA) and cultured in MEM (minimal essential medium, Thermo Sci, USA), RPMI 1640 (Roswell Park Memorial Institute, Biowest SAS, France), and DMEM (Dulbecco’s Modified Eagle’s Medium, Biowest SAS, France). Cells were seeded in 6 mL medium in a tissue culture flask (50 mL) in a 37 °C/5% CO2 humidified incubator. […] MTT analysis was performed according to a previous study.[59] Untreated cells were used as controls. Cell absorbance results were inserted into the formula for the relative MTT level (%). It allows to calculate the viability of cells under the influence of the tested compounds. Cell viability was expressed as the percentage of MTT reduction in cells treated with tested compounds compared to the control sample. The relative MTT level was calculated using the formula [100%] = A/B × 100% where A—the test sample absorbance and B—the control sample absorbance.

## COc1cccc2c1C(=O)c1c(O)c3c(c(O)c1C2=O)C[C@@](O)(C(=O)CO)C[C@@H]3O[C@H]1C[C@H](N)[C@H](O)[C@H](C)O1 [doxorubicin, reference compound]
  SI (IC50 normal cell line/IC50 cancer cell line): 1.0
